Structures can show the parent of a compound that is named as a salt.
Test system: Serpulina hyodysenteriae
Test: MIC determination on agar, 10 S. hyodysenteriae strains
Type: cell-based

C=C[C@]1(C)C[C@@H](OC(=O)CSC(C)(C)CNC(=O)[C@H](N)C(C)C)[C@]2(C)[C@H](C)CC[C@]3(CCC(=O)[C@H]32)[C@@H](C)[C@@H]1O [valnemulin hydrochloride, 14-O-[1-[(R)-2-amino-3-methylbutyrylamino]-2-methylpropan-2-ylthioacetyl]mutilin]
number of strains with MIC 0.0625 μg/ml: 3

From patent US6130250A, “Veterinary use of a pleuromutilin derivative” (priority 1996, dated 2000)
